According to patent publication US10765662B2, “Mono- or di-substituted indole derivatives as dengue viral replication inhibitors” (Janssen Pharmaceuticals, Inc., priority 2015, dated 2020):

Columns and labels:
Assay type in all cases: cell-based, Dengue virus
[1] = system: DENV-3 strain H87; test: Tetravalent RT-qPCR assay Protocol A, serotype 3; settings: RT-qPCR serotype 3 H87
Experimental: (§1) The antiviral activity of the compounds of the invention was tested against DENV-1 strain TC974#666 (NCPV), DENV-2 strain 16681, DENV-3 strain H87 (NCPV) and DENV-4 strains H241 (NCPV) and EDEN (SG/06K2270DK1/2005; GenBank accession number QG398256) in a RT-qPCR assay. Therefore, Vero cells were infected with either DENV-1, or -2, or -3, or -4 in the presence or absence of test compounds. At day 3 post-infection, the cells were lysed and cell lysates were used to prepare cDNA of both a viral target (the 3′UTR of DENV; Table 2) and a cellular reference gene (β-actin, Table 2). Subsequently, a duplex real time PCR was performed on a Lightcycler480 instrument. The generated Cp value is inversely proportional to the amount of RNA expression of these targets. Inhibition of DENV replication by a test compound results in a shift of Cp's for the 3′UTR gene. On the other hand, if a test compound is toxic to the cells, a similar effect on β-actin expression will be observed. The comparative ΔΔCp method is used to calculate EC50, which is based on the relative gene expression of the target gene (3′UTR) normalized with the cellular housekeeping gene (β-actin). In addition, CC50 values are determined based on the Cp values acquired for the housekeeping gene β-actin.
(§2) The culture medium consisted of minimal essential medium supplemented with 2% of heat-inactivated fetal calf serum, 0.04% gentamycin (50 mg/mL) and 2 mM of L-glutamine. Vero cells, obtained from ECACC, were suspended in culture medium and 75 μL/well was added in 96-well plates (10000 cells/well), which already contain the antiviral compounds. […] In addition, each plate contains wells which are assigned as virus controls (containing cells and virus in the absence of compound) and cell controls (containing cells in the absence of virus and compound). Once the cells were added in the plates, the plates were incubated in a fully humidified incubator (37° C., 5% CO2) until the next day. Dengue viruses serotype-1, 2, 3 and 4 were diluted in order to obtain a Cp of ˜22-24 in the assay. Therefore, 25 μL of virus suspension, was added to all the wells containing test compound and to the wells assigned as virus control. In parallel, 25 μL of culture medium was added to the cell controls. Next, the plates were incubated for 3 days in a fully humidified incubator (37° C., 5% CO2). After 3 days, the supernatant was removed from the wells and the cells were washed twice with ice-cold PBS (˜100 μL). The cell pellets within the 96-well plates were stored at −80° C. for at least 1 day. Next, RNA was extracted using the Cells-to-CT™ lysis kit, according to the manufacturer's guideline (Life Technologies). The cell lysates can be stored at −80° C. or immediately used in the reverse transcription step.
(§3) In preparation of the reverse transcription step, mix A (table 3A) was prepared and 7.57 μL/well was dispensed in a 96-well plate. After addition of 5 μL of the cell lysates, a five minute denaturation step at 75° C. was performed (table 3B). Afterwards, 7.43 μL of mix B was added (table 3C) and the reverse transcription step was initiated (table 3D) to generate cDNA.
(§4) Finally, a RT-qPCR mix was prepared, mix C (table 4A), and 22.02 μL/well was dispensed in 96-well LightCycler qPCR plates to which 3 μL of cDNA was added and the qPCR was performed according to the conditions in table 4B on a LightCycler 480.
(§5) Using the LightCycler software and an in-house LIMS system, dose response curves for each compound were calculated and the half maximal effective concentration (EC50) and the half maximal cytotoxic concentration (CC50) were determined (Tables 5-8).

[2] = system: DENV-4 strain H241; test: Tetravalent RT-qPCR assay Protocol A, serotype 4 H241; settings: RT-qPCR serotype 4 H241
Experimental: as §1, §2, §3, §4, §5

[3] = system: DENV-2 16681 strain labeled with enhanced green fluorescent protein; test: DENV-2 antiviral assay (eGFP fluorescence read-out in Vero cells); settings: SI=CC50/EC50, DENV-2 antiviral assay
Experimental: The antiviral activity of all the compounds of the invention was tested against the DENV-2 16681 strain which was labeled with enhanced green fluorescent protein (eGPF). The culture medium consists of minimal essential medium supplemented with 2% of heat-inactivated fetal calf serum, 0.04% gentamycin (50 mg/mL) and 2 mM of L-glutamine. Vero cells, obtained from ECACC, were suspended in culture medium and 25 μL was added to 384-well plates (2500 cells/well), which already contain the antiviral compounds. Typically, these plates contain a 5-fold serial dilution of 9 dilution steps of the test compound at 200 times the final concentration in 100% DMSO (200 nL). […] Finally, each plate contains wells which are assigned as virus controls (containing cells and virus in the absence of compound), cell controls (containing cells in the absence of virus and compound) and medium controls (containing medium in the absence of cells, virus and compounds). To the wells assigned as medium control, 25 μL of culture medium was added instead of Vero cells. Once the cells were added to the plates, the plates were incubated for 30 minutes at room temperature to allow the cells to distribute evenly within the wells. Next, the plates were incubated in a fully humidified incubator (37° C., 5% CO2) until the next day. Then, DENV-2 strain 16681, labeled with eGFP, was added at a multiplicity of infection (MOI) of 0.5. Therefore, 15 μL of virus suspension was added to all the wells containing test compound and to the wells assigned as virus control. In parallel, 15 μL of culture medium was added to the medium and cell controls. Next, the plates were incubated for 3 days in a fully humidified incubator (37° C., 5% CO2). At the day of the read out, the eGFP fluorescence was measured using an automated fluorescence microscope at 488 nm (blue laser). Using an in-house LIMS system, inhibition dose response curves for each compound were calculated and the half maximal effective concentration (EC50) was determined. Therefore, the percent inhibition (I) for every test concentration is calculated using the following formula: I=100*([…])/(SVC−SCC); ST, SCC and SVC are the amount of eGFP signal in the test compound, cell control and virus control wells, respectively. The EC50 represents the concentration of a compound at which the virus replication is inhibited with 50%, as measured by a 50% reduction of the eGFP fluorescent intensity compared to the virus control. The EC50 is calculated using linear interpolation (Table 1).

[4] = system: DENV-4 strain EDEN (SG/06K2270DK1/2005); test: Tetravalent RT-qPCR assay Protocol A, serotype 4 EDEN; settings: RT-qPCR serotype 4 EDEN
Experimental: as §1, §2, §3, §4, §5

[5] = system: DENV-2 strain 16681; test: Tetravalent RT-qPCR assay Protocol A, serotype 2; settings: RT-qPCR serotype 2 16681
Experimental: as §1, §2, §3, §4, §5

[6] = system: DENV-1 strain TC974#666; test: Tetravalent RT-qPCR assay Protocol A, serotype 1; settings: RT-qPCR serotype 1 TC974#666
Experimental: as §1, §2, §3, §4, §5

SMILES | SI [1] | SI [2] | SI [3] | SI [4] | SI [5] | SI [6]
COc1cc(NC(C(=O)c2c[nH]c3cc(OC)ccc23)c2ccc(Cl)cc2OCCO)cc(S(C)(=O)=O)c1 (single isomer, unassigned) [Compound 3A, 2-(4-chloro-2-(2-hydroxyethoxy)phenyl)-1-(6-methoxy-1H-indol-3-yl)-2-((3-methoxy-5-(methylsulfonyl)phenyl)amino)ethanone] | 110 | 21 | 16400 | 2088 | 16800 | 1380
COc1cc(NC(C(=O)c2c[nH]c3cc(Cl)ccc23)c2ccc(Cl)cc2OCCO)cc(S(C)(=O)=O)c1 (single isomer, unassigned) [Compound 2A, 1-(6-chloro-1H-indol-3-yl)-2-(4-chloro-2-(2-hydroxyethoxy)phenyl)-2-((3-methoxy-5-(methylsulfonyl)phenyl)amino)ethanone] | >186 | 39 | >37500 | >2406 | >29700 | >1980
COc1cc(NC(C(=O)c2c[nH]c3c(C)c(F)ccc23)c2ccc(Cl)cc2OCCO)cc(S(C)(=O)=O)c1 (single isomer, unassigned) [Compound 4A, 2-(4-chloro-2-(2-hydroxyethoxy)phenyl)-1-(6-fluoro-7-methyl-1H-indol-3-yl)-2-((3-methoxy-5-(methylsulfonyl)phenyl)amino)ethanone] | >173 | 24 | >23200 | >2455 | 40100 | >2160
COc1cc(NC(C(=O)c2c[nH]c3cc(F)c(F)cc23)c2ccc(Cl)cc2OCCO)cc(S(C)(=O)=O)c1 (single isomer, unassigned) [Compound 7A, 2-(4-chloro-2-(2-hydroxyethoxy)phenyl)-1-(5,6-difluoro-1H-indol-3-yl)-2-((3-methoxy-5-(methylsulfonyl)phenyl)amino)ethanone] | 299 | 37 | 12573 | 4953 | >14800 | 5380
COc1cc(NC(C(=O)c2c[nH]c3cc(OC)c(C)cc23)c2ccc(Cl)cc2OCCO)cc(S(C)(=O)=O)c1 (single isomer, unassigned) [Compound 6A, 2-(4-chloro-2-(2-hydroxyethoxy)phenyl)-2-((3-methoxy-5-(methylsulfonyl)phenyl)amino)-1-(6-methoxy-5-methyl-1H-indol-3-yl)ethanone] | 198 | 58 | >38500 | >2825 | 65400 | 2830
